Measurements taken from patent US7563592B2, “Alizarin-based chromogenic substrates, their uses and composition containing same” (Biomerieux, S.A., priority 1999, dated 2009).

Experiments:
Assay type in all cases: cell-based
[1] = test system: Proteus penneri; assay: β-galactosidase detection on semi-solid medium, clinical and environmental strains (Example 2); settings: 80 mg/l; 18 hours; 1 strain tested
[2] = test system: Proteus vulgaris; assay: as above; settings: 80 mg/l; 18 hours; 4 strains tested
[3] = test system: Proteus mirabilis; assay: as above; settings: 80 mg/l; 18 hours; 16 strains tested
[4] = test system: Citrobacter freundii; assay: as above; settings: 80 mg/l; 18 hours; 16 strains tested
[5] = test system: Klebsiella oxytoca; assay: as above; settings: 80 mg/l; 18 hours; 13 strains tested
[6] = test system: Enterobacter agglomerans; assay: as above; settings: 80 mg/l; 18 hours; 1 strain tested
[7] = test system: Klebsiella pneumoniae; assay: as above; settings: 80 mg/l; 18 hours; 19 strains tested
[8] = test system: Morganella morganii; assay: as above; settings: 80 mg/l; 18 hours; 12 strains tested
[9] = test system: Klebsiella ozaenae; assay: as above; settings: 80 mg/l; 18 hours; 3 strains tested
[10] = test system: Enterobacter cloacae; assay: as above; settings: 80 mg/l; 18 hours; 21 strains tested
[11] = test system: Providencia rettgeri; assay: as above; settings: 80 mg/l; 18 hours; 3 strains tested
[12] = test system: 367 different strains collected from clinical and environmental specimens; assay: β-galactosidase detection on semi-solid medium, all strains together (Example 2); settings: 80 mg/l; 18 hours at 37° C.
[13] = test system: Shigella sonnei; assay: β-galactosidase detection on semi-solid medium, clinical and environmental strains (Example 2); settings: 80 mg/l; 18 hours; 10 strains tested
[14] = test system: Acinetobacter spp.; assay: as above; settings: 80 mg/l; 18 hours; 53 strains tested
[15] = test system: Escherichia hermannii; assay: as above; settings: 80 mg/l; 18 hours; 1 strain tested
[16] = test system: Salmonella spp.; assay: as above; settings: 80 mg/l; 18 hours; 64 strains tested
[17] = test system: Shigella boydii; assay: as above; settings: 80 mg/l; 18 hours; 1 strain tested
[18] = test system: Aeromonas hydrophila; assay: as above; settings: 80 mg/l; 18 hours; 3 strains tested
[19] = test system: Enterobacter aerogenes; assay: as above; settings: 80 mg/l; 18 hours; 9 strains tested
[20] = test system: Citrobacter diversus; assay: as above; settings: 80 mg/l; 18 hours; 9 strains tested
[21] = test system: Shigella flexneri; assay: as above; settings: 80 mg/l; 18 hours; 2 strains tested
[22] = test system: Yersinia enterocolitica; assay: as above; settings: 80 mg/l; 18 hours; 14 strains tested
[23] = test system: Aeromonas caviae; assay: as above; settings: 80 mg/l; 18 hours; 7 strains tested
[24] = test system: Providencia alcalifaciens; assay: as above; settings: 80 mg/l; 18 hours; 3 strains tested
[25] = test system: Serratia odorifera; assay: as above; settings: 80 mg/l; 18 hours; 1 strain tested
[26] = test system: Hafnia alvei; assay: as above; settings: 80 mg/l; 18 hours; 10 strains tested
[27] = test system: Escherichia coli; assay: as above; settings: 80 mg/l; 18 hours; 41 strains tested
[28] = test system: Providencia stuartii; assay: as above; settings: 80 mg/l; 18 hours; 10 strains tested
[29] = test system: Serratia spp.; assay: as above; settings: 80 mg/l; 18 hours; 14 strains tested

In the case of “5-Bromo-4-chloro-3-indolyl-β-D-galactoside [reference compound]”, the “percentage of positive strains” value [1] was 0%, the “percentage of positive strains” value [2] was 0% and the “percentage of positive strains” value [3] was 0%. The “percentage of positive strains” value [4] was 100%, the “percentage of positive strains” value [5] was 100% and the “percentage of positive strains” value [6] was 100%. For the same substance, the “percentage of positive strains” value [7] was 100%, the “percentage of positive strains” value [8] was 0% and the “percentage of positive strains” value [9] was 67%. For the same substance, the “percentage of positive strains” value [10] was 100%, the “percentage of positive strains” value [11] was 0% and the “color of colonies expressing β-galactosidase activity” value [12] was “turquoise”. The “percentage of positive strains” value [13] was 100%, the “percentage of positive strains” value [14] was 0% and the “percentage of positive strains” value [15] was 100%. For the same substance, the “percentage of positive strains” value [16] was 0%, the “percentage of positive strains” value [17] was 0% and the “percentage of positive strains” value [18] was 100%. The “percentage of positive strains” value [19] was 100%, the “percentage of positive strains” value [20] was 89% and the “percentage of positive strains” value [21] was 0%. For the same substance, the “percentage of positive strains” value [22] was 29%, the “percentage of positive strains” value [23] was 86% and the “percentage of positive strains” value [24] was 0%. The “percentage of positive strains” value [25] was 100%, the “percentage of positive strains” value [26] was 80% and the “percentage of positive strains” value [27] was 95%. The “percentage of positive strains” value [28] was 0% and the “percentage of positive strains” value [29] was 79%.
